Counter-ions that a name gives are not always drawn.
The compounds below were run against DEN2V NS2B-G4SG4-NS3 serine protease (Dengue virus type 2 (DENV-2), UniProt Q91H74) (assay: DEN2V Protease Inhibition Assay).
With Cc1cc(C[n+]2cc([N-]C(=O)Nc3cccc(C(F)(F)F)c3)on2)ccc1-c1cncnc1 [Example 87, (3-(3-methyl-4-(pyrimidin-5-yl)benzyl)-1,2,3-oxadiazol-3-ium-5-yl)((3-(trifluoromethyl)phenyl)carbamoyl)amide] the IC50 was 1000 to 20000 nM. Cc1cc(C[n+]2cc([N-]C(=O)Nc3cccc(C(F)(F)F)c3)on2)ccc1-c1c(C)noc1C [Example 88, (3-(4-(3,5-Dimethylisoxazol-4-yl)-3-methylbenzyl)-1,2,3-oxadiazol-3-ium-5-yl)((3-(trifluoromethyl)phenyl)carbamoyl)amide] showed an IC50 of 100 to 1000 nM. Cc1nc(OCCO)ncc1-c1ccc(C[n+]2cc([N-]C(=O)Nc3cccc(C(F)(F)F)c3)on2)cc1 [Example 89, (3-(4-(2-(2-hydroxyethoxy)-4-methylpyrimidin-5-yl)benzyl)-1,2,3-oxadiazol-3-ium-5-yl)((3-(trifluoromethyl)phenyl)carbamoyl)amide] was tested, and the IC50 was 1000 to 20000 nM. In the case of COc1ncc(-c2ccc(C[n+]3cc([N-]C(=O)Nc4cccc(C(F)(F)F)c4)on3)cc2)c(C)n1 [Example 90, (3-(4-(2-Methoxy-4-methylpyrimidin-5-yl)benzyl)-1,2,3-oxadiazol-3-ium-5-yl)((3-(trifluoromethyl)phenyl)carbamoyl)amide], the IC50 is reported as 100 to 1000 nM. In the case of O=C([N-]c1c[n+](Cc2ccc(-c3cncnc3C3CC3)cc2)no1)Nc1cccc(C(F)(F)F)c1 [Example 91, (3-(4-(4-cyclopropylpyrimidin-5-yl)benzyl)-1,2,3-oxadiazol-3-ium-5-yl)((3-(trifluoromethyl)phenyl)carbamoyl)amide], the IC50 is reported as 100 to 1000 nM. In the case of Cc1ncccc1-c1ccc(C[n+]2cc([N-]C(=O)Nc3cccc(C(F)(F)F)c3)on2)cc1 [Example 92, (3-(4-(2-methylpyridin-3-yl)benzyl)-1,2,3-oxadiazol-3-ium-5-yl)((3-(trifluoromethyl)phenyl)carbamoyl)amide], the IC50 is reported as 100 to 1000 nM. Compound Cc1cnncc1-c1ccc(C[n+]2cc([N-]C(=O)Nc3cccc(C(F)(F)F)c3)on2)cc1 [Example 93, (3-(4-(5-methylpyridazin-4-yl)benzyl)-1,2,3-oxadiazol-3-ium-5-yl)((3-(trifluoromethyl)phenyl)carbamoyl)amide] has an IC50 of 1000 to 20000 nM. Cc1noc(C)c1-c1cccc(C[n+]2cc([N-]C(=O)Nc3cccc(C(F)(F)F)c3)on2)c1 [Example 94, (3-(3-(3,5-dimethylisoxazol-4-yl)benzyl)-1,2,3-oxadiazol-3-ium-5-yl)((3-(trifluoromethyl)phenyl)carbamoyl)amide] was tested, and the IC50 was 1000 to 20000 nM. Cc1c(-c2ccc(C[n+]3cc([N-]C(=O)Nc4cccc(C(F)(F)F)c4)on3)cc2)cnn1C [Example 95, (3-(4-(1,5-dimethyl-1H-pyrazol-4-yl)benzyl)-1,2,3-oxadiazol-3-ium-5-yl)((3-(trifluoromethyl)phenyl)carbamoyl)amide] was tested, and the IC50 was 1000 to 20000 nM. Cc1nn(C)cc1-c1ccc(C[n+]2cc([N-]C(=O)Nc3cccc(C(F)(F)F)c3)on2)cc1 [Example 96, (3-(4-(1,3-dimethyl-1H-pyrazol-4-yl)benzyl)-1,2,3-oxadiazol-3-ium-5-yl)((3-(trifluoromethyl)phenyl)carbamoyl)amide] was tested, and the IC50 was 1000 to 20000 nM. Cc1nn(C)c(C)c1-c1ccc(C[n+]2cc([N-]C(=O)Nc3cccc(C(F)(F)F)c3)on2)cc1 [Example 97] was tested, and the IC50 was 100 to 1000 nM. In the case of Cc1ncn(C)c1-c1ccc(C[n+]2cc([N-]C(=O)Nc3cccc(C(F)(F)F)c3)on2)cc1 [Example 98, (3-(4-(1,4-dimethyl-1H-imidazol-5-yl)benzyl)-1,2,3-oxadiazol-3-ium-5-yl)((3-(trifluoromethyl)phenyl)carbamoyl)amide], the IC50 is reported as 1000 to 20000 nM. In the case of Cc1noc(C)c1-c1ccc([C@H](CN)[n+]2cc([N-]C(=O)Nc3cccc(C(F)(F)F)c3)on2)cc1 [Example 99, (R)-(3-(2-amino-1-(4-(3,5-dimethylisoxazol-4-yl)phenyl)ethyl)-1,2,3-oxadiazol-3-ium-5-yl)((3-(trifluoromethyl)phenyl)carbamoyl)amide formate], the IC50 is reported as 1000 to 20000 nM. Compound O=C([N-]c1c[n+](Cc2csc(-c3cncnc3)c2)no1)Nc1cccc(C(F)(F)F)c1 [Example 100, (3-((5-(pyrimidin-5-yl)thiophen-3-yl)methyl)-1,2,3-oxadiazol-3-ium-5-yl)((3-(trifluoromethyl)phenyl)carbamoyl)amide] has an IC50 of 1000 to 20000 nM. Cc1cc(C[n+]2cc([N-]C(=O)Nc3cccc(C(F)(F)F)c3)on2)ccc1-c1cncnc1C [Example 101, (3-(3-methyl-4-(4-methylpyrimidin-5-yl)benzyl)-1,2,3-oxadiazol-3-ium-5-yl)((3-(trifluoromethyl)phenyl)carbamoyl)amide] showed an IC50 of 1000 to 20000 nM. NC[C@@H](c1ccc(-c2cncnc2)cc1)[n+]1cc([N-]C(=O)Nc2cccc(C(F)(F)F)c2)on1 [Example 102, (R)-(3-(2-amino-1-(4-(pyrimidin-5-yl)phenyl)ethyl)-1,2,3-oxadiazol-3-ium-5-yl)((3-(trifluoromethyl)phenyl)carbamoyl)amide formate] gave an IC50 of 1000 to 20000 nM. O=C([N-]c1c[n+](Cc2ccc(-c3cncnc3)nc2)no1)Nc1cccc(C(F)(F)F)c1 [Example 103, (3-((6-(pyrimidin-5-yl)pyridin-3-yl)methyl)-1,2,3-oxadiazol-3-ium-5-yl)((3-(trifluoromethyl)phenyl)carbamoyl)amide] was tested, and the IC50 was 1000 to 20000 nM. Compound Cc1noc(C)c1-c1ccc(C[n+]2cc([N-]C(=O)Nc3cccc(C(F)(F)F)c3)on2)cn1 [Example 104, (3-((6-(3,5-dimethylisoxazol-4-yl)pyridin-3-yl)methyl)-1,2,3-oxadiazol-3-ium-5-yl)((3-(trifluoromethyl)phenyl)carbamoyl)amide] has an IC50 of 1000 to 20000 nM. With Cc1ncc(-c2ccc(C[n+]3cc([N-]C(=O)Nc4cccc(C(F)(F)F)c4)on3)cc2)n1C [Example 105, (3-(4-(1,2-dimethyl-1H-imidazol-5-yl)benzyl)-1,2,3-oxadiazol-3-ium-5-yl)((3-(trifluoromethyl)phenyl)carbamoyl)amide] the IC50 was 1000 to 20000 nM. Work on N#Cc1ncncc1-c1ccc(C[n+]2cc([N-]C(=O)Nc3cccc(C(F)(F)F)c3)on2)cc1 [Example 106, (3-(4-(4-cyanopyrimidin-5-yl)benzyl)-1,2,3-oxadiazol-3-ium-5-yl)((3-(trifluoromethyl)phenyl)carbamoyl)amide] yielded an IC50 of 1000 to 20000 nM. O=C([N-]c1c[n+](Cc2ccc(-c3c(F)nc[nH]c3=O)cc2)no1)Nc1cccc(C(F)(F)F)c1 [Example 107, (3-(4-(4-fluoro-6-oxo-1,6-dihydropyrimidin-5-yl)benzyl)-1,2,3-oxadiazol-3-ium-5-yl)((3-(trifluoromethyl)phenyl)carbamoyl)amide] gave an IC50 of 1000 to 20000 nM. O=C([N-]c1c[n+](Cc2ccc(-c3cncnc3)cn2)no1)Nc1cccc(C(F)(F)F)c1 [Example 108, (3-((5-(pyrimidin-5-yl)pyridin-2-yl)methyl)-1,2,3-oxadiazol-3-ium-5-yl)((3-(trifluoromethyl)phenyl)carbamoyl)amide] showed an IC50 of 1000 to 20000 nM. In the case of Cc1noc(C)c1-c1ccc(C[n+]2cc([N-]C(=O)Nc3cccc(C(F)(F)F)c3)on2)nc1 [Example 109, (3-((5-(3,5-dimethylisoxazol-4-yl)pyridin-2-yl)methyl)-1,2,3-oxadiazol-3-ium-5-yl)((3-(trifluoromethyl)phenyl)carbamoyl)amide], the IC50 is reported as 1000 to 20000 nM. Cc1ncncc1-c1csc(C[n+]2cc([N-]C(=O)Nc3cccc(C(F)(F)F)c3)on2)c1 [Example 110, (3-((4-(4-methylpyrimidin-5-yl)thiophen-2-yl)methyl)-1,2,3-oxadiazol-3-ium-5-yl)((3-(trifluoromethyl)phenyl)carbamoyl)amide] showed an IC50 of 1000 to 20000 nM. COc1ncnc(C)c1-c1ccc(C[n+]2cc([N-]C(=O)Nc3cccc(C(F)(F)F)c3)on2)cc1 [Example 111, (3-(4-(4-methoxy-6-methylpyrimidin-5-yl)benzyl)-1,2,3-oxadiazol-3-ium-5-yl)((3-(trifluoromethyl)phenyl)carbamoyl)amide] showed an IC50 of 100 to 1000 nM. In the case of Cc1ncnc(OCCO)c1-c1ccc(C[n+]2cc([N-]C(=O)Nc3cccc(C(F)(F)F)c3)on2)cc1 [Example 112, (3-(4-(4-(2-hydroxyethoxy)-6-methylpyrimidin-5-yl)benzyl)-1,2,3-oxadiazol-3-ium-5-yl)((3-(trifluoromethyl)phenyl)carbamoyl)amide], the IC50 is reported as 1000 to 20000 nM. With COc1ncc(-c2ccc(C[n+]3cc([N-]C(=O)Nc4cccc(Cl)c4)on3)cc2)c(C)n1 [Example 113, ((3-chlorophenyl)carbamoyl)(3-(4-(2-methoxy-4-methylpyrimidin-5-yl)benzyl)-1,2,3-oxadiazol-3-ium-5-yl)amide] the IC50 was 1000 to 20000 nM. With Cc1noc(C)c1-c1ccc([C@@H](CN)[n+]2cc([N-]C(=O)Nc3cccc(C(F)(F)F)c3)on2)cc1 [Example 116, (S)-(3-(2-amino-1-(4-(3,5-dimethylisoxazol-4-yl)phenyl)ethyl)-1,2,3-oxadiazol-3-ium-5-yl)((3-(trifluoromethyl)phenyl)carbamoyl)amide formate] the IC50 was 1000 to 20000 nM. In the case of O=C([N-]c1c[n+](Cc2ccc(-c3cnn(C4CCNCC4)c3)nc2)no1)Nc1cccc(C(F)(F)F)c1 [Example 117, (3-((6-(1-(piperidin-4-yl)-1H-pyrazol-4-yl)pyridin-3-yl)methyl)-1,2,3-oxadiazol-3-ium-5-yl)((3-(trifluoromethyl)phenyl)carbamoyl)amide], the IC50 is reported as 1000 to 20000 nM. Cc1ncn(C)c1-c1ccc(C[n+]2cc([N-]C(=O)Nc3cccc(C(F)(F)F)c3)on2)nc1 [Example 118, (3-((5-(1,4-dimethyl-1H-imidazol-5-yl)pyridin-2-yl)methyl)-1,2,3-oxadiazol-3-ium-5-yl)((3-(trifluoromethyl)phenyl)carbamoyl)amide] was tested, and the IC50 was 1000 to 20000 nM. Work on O=C([N-]c1c[n+](Cc2ccc(-c3cccc4c3CNC4)cn2)no1)Nc1cccc(C(F)(F)F)c1 [Example 119, (3-((5-(isoindolin-4-yl)pyridin-2-yl)methyl)-1,2,3-oxadiazol-3-ium-5-yl)((3-(trifluoromethyl)phenyl)carbamoyl)amide] yielded an IC50 of 1000 to 20000 nM. With O=C([N-]c1c[n+](Cc2ccc(-c3cnn(C4CCNCC4)c3)cn2)no1)Nc1cccc(C(F)(F)F)c1 [Example 120, (3-((5-(1-(piperidin-4-yl)-1H-pyrazol-4-yl)pyridin-2-yl)methyl)-1,2,3-oxadiazol-3-ium-5-yl)((3-(trifluoromethyl)phenyl)carbamoyl)amide] the IC50 was 1000 to 20000 nM.

Source: patent US20250353853A1, “FLAVIVIRUS INHIBITORS” (IRBM S.P.A., priority 2022, published 2025)
